Values of other authors in patent US12390454B2, “Use and composition for protection against organophosphorus poisoning” (dated 2025).
Where two headings read alike, the source gives them in different places.

Chains of the proteins cited; added tags and fusions are not shown. Lines headed by an entry give the natural chain unless they say otherwise; changes in a name come on top.
UniProt P22303: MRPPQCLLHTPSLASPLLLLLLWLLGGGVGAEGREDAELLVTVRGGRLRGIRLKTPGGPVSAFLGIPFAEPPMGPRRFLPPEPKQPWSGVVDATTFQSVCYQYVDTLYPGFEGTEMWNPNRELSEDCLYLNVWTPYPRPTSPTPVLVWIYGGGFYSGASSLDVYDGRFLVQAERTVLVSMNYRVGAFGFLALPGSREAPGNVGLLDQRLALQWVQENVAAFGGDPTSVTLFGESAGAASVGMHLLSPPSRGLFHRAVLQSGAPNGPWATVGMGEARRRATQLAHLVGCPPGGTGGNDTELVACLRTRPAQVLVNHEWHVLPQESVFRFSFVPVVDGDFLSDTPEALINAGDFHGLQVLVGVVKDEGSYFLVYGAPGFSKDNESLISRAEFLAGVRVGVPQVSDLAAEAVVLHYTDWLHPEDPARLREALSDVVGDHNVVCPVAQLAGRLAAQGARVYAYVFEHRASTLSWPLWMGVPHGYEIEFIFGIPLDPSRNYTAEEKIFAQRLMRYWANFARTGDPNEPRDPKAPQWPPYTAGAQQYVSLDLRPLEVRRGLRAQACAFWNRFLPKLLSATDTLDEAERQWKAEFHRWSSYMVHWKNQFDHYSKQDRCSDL

Biological target: AChE (Homo sapiens, UniProt P22303)
Conditions: primates, cited from earlier work

CN(C)C(=O)Oc1ccc[n+](C)c1
AChE activity in red blood cells inhibited (high dose 39.5 μg/kg): 50%
AChE activity in red blood cells inhibited (low dose 12.5 μg/kg): 18%
